Several values for one entry are separate records, joined by “and”; a condition that tells them apart may be missing. Equal values may be shown once.
Assays:
Format in all cases: cell-based
Details in all cases: SI = CC50 (J774 macrophages)/IC50
[1] = tested on: Leishmania donovani amastigotes; test: Intracellular amastigote assay in J774 macrophages, L. donovani
Description: (§1) We performed an intracellular amastigote assay on L. amazonensis and L. donovani according to a fluorometric method reported by us. To carry out the in vitro macrophage infections, 5 × 10^4 cells were cultured in RPMI-1640 medium and then were infected with 5 × 10^5 promastigotes. In the L. donovani assays, the plates were incubated for 48 h at 37 °C, while in the L. amazonensis assays, they were incubated at 33 °C for the first 24 h and then the temperature was increased to 37 °C for the next 24 h. After, the culture medium was removed and the cells were washed with buffered RPMI-HEPES at pH 7.4 several times in order to eliminate the non-internalized promastigotes. A total of 100 µL of fresh medium tempered at 37 °C was added to the infected cells, which then were exposed to 100 µL of the test compounds in RPMI-1640 at different concentrations (100, 50, 25, 12.5, 6.25, 3.12, 1.56 and 0.78 µg/mL in a final volume of 200 µL) for 48 h at 37 °C. The culture medium was removed by centrifugation at 3500 rpm for 5 min (Centrifuge 5403 Eppendorf) and a lysis solution (0.02% sodium dodecyl sulfate in RPMI-HEPES) was added. After 20 min, the treated cells were harvested (centrifugation at 3500 rpm for 5 min at 4 °C) and the supernatants were replaced by 200 μL of fresh Schneider’s culture medium. The plates were then incubated at 26 °C for another 3 days to allow for the transformation of viable amastigotes into promastigotes and proliferation. Afterwards, 20 μL/well of 2.5 mM resazurin was added and incubated for another 3 h. Finally, URF was measured and IC50 was estimated as described above. All tests were carried out in triplicate. Miltefosine was used as the reference drug.

[2] = tested on: Leishmania amazonensis amastigotes; test: Intracellular amastigote assay in J774 macrophages, L. amazonensis
Description: as §1

[3] = tested on: Leishmania donovani promastigotes; test: Promastigote susceptibility assay (resazurin), L. donovani
Description: (§2) The following species of Leishmania were used: L. donovani (MHOM/IN/80/DD8), which was purchased (ATCC, Manassas, VA, USA), and L. amazonensis (MHOM/Br/79/Maria), which was kindly provided by Prof. Alfredo Toraño (Instituto de Salud Carlos III, Madrid, Spain). Promastigotes were cultured in Schneider’s Insect Medium supplemented with 10% heat-inactivated Fetal Bovine Serum (FBS) (SIGMA-Merck, Madrid, Spain) and 1000 U/L of penicillin plus 100 mg/L of streptomycin in 25 mL culture flasks at 26 °C.
(§3) The activity of the compounds on Leishmania promastigotes was performed according to the method previously reported by us. Briefly, promastigotes (2.5 × 10^5 parasites/well) were cultured in 96-well plastic plates. The compounds were dissolved in dimethylsulfoxide (DMSO). Serial dilutions at 1:2 of the test compounds in fresh culture medium were performed (100, 50, 25, 12.5, 6.25, 3.12, 1.56 and 0.78 µg/mL) in a final volume of 200 µL; the solutions were then added to the parasite suspension. […] Finally, the Relative Fluorescence Unit (RFU) (535ex–590em nm wavelength) was determined in a fluorimeter (Infinite 200 Tecan i-Control). Growth inhibition (%) was calculated by 100—[(RFU treated wells—RFU signal-to-noise)/(RFU untreated—RFU signal-to-noise) × 100]. All tests were carried out in triplicate and the IC50 was calculated by probit analysis using SPSS 17.0 Statistics Software. […]

[4] = tested on: Leishmania amazonensis promastigotes; test: Promastigote susceptibility assay (resazurin), L. amazonensis
Description: as §2, §3

Row | Compound | L. donovani amastigote selectivity index (SI) [1] | L. amazonensis amastigote selectivity index (SI) [2] | L. donovani promastigote selectivity index (SI) [3] | L. amazonensis promastigote selectivity index (SI) [4]
1 | N-(6-Methoxy-1,4-dioxide-3-(4-trifloromethylphenyl)quinoxaline-2-carbonyl)glycine methyl ester [Compound 4h] | 14.0 | 26.5 | – | –
2 | COC(=O)CNC(=O)c1c(-c2ccccc2)[n+]([O-])c2ccccc2[n+]1[O-] [Compound 4a, N-(1,4-Dioxide-3-phenylquinoxaline-2-carbonyl)glycine methyl ester] | – | 67.3 | – | –
3 | COC(=O)CNC(=O)c1c(-c2ccc(F)cc2)[n+]([O-])c2cc(C)ccc2[n+]1[O-] [Compound 4m, N-(6-Methyl-1,4-dioxide-3-(4-fluorophenyl)-quinoxaline-2-carbonyl)glycine methyl ester] | 1.6 | 6.11 and 6.1 | – | –
4 | COC(=O)CNC(=O)c1c(-c2cccc(Cl)c2)[n+]([O-])c2cc(OC)ccc2[n+]1[O-] [Compound 4g, N-(6-Methoxy-1,4-dioxide-3-(3-chlorophenyl)quinoxaline-2-carbonyl)glycine methyl ester] | 92.8 | 310.6 | – | –
5 | COC(=O)CNC(=O)c1c(-c2ccc(OC)cc2)[n+]([O-])c2ccccc2[n+]1[O-] [Compound 4b] | – | – | 6.0 | –
6 | N-(6-Methoxy-1,4-dioxide-3-(4-florophenyl)quinoxaline-2-carbonyl)glycine methyl ester [Compound 4i] | 5.3 | 29.9 | – | –
7 | COC(=O)CNC(=O)c1c(-c2ccccc2C)[n+]([O-])c2cc(OC)ccc2[n+]1[O-] [Compound 4k, N-(6-Methoxy-1,4-dioxide-3-(2-methylphenyl)quinoxaline-2-carbonyl)glycine methyl ester] | 4.6 | – | – | –
8 | COC(=O)CNC(=O)c1c(-c2ccc(C(F)(F)F)cc2)[n+]([O-])c2cc(C)ccc2[n+]1[O-] [Compound 4l, N-(6-Methyl-1,4-dioxide-3-(4-trifluoromethylphenyl)quinoxaline-2-carbonyl)glycine methyl ester] | – | – | > 6.0 | > 6.0
